Assay results published in publication PMC6423129, “Activity and structural analysis of GRL-117C: a novel small molecule CCR5 inhibitor active against R5-tropic HIV-1s” (Scientific Reports, 2019).

Protein sequences, listed by entry. Tags and fused reporters are not part of them.
UniProt P51681, whole entry: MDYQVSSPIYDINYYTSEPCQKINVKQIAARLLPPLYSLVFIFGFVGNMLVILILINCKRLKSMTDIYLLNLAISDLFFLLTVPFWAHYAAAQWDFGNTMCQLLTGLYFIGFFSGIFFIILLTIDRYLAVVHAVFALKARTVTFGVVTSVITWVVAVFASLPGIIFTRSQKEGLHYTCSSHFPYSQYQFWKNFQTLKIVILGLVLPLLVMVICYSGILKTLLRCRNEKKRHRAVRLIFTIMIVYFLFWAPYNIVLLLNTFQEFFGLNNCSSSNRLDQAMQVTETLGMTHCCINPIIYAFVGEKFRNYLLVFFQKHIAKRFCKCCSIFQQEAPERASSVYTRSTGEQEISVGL

Tests used:
CCR5 [1] = target: T1, CCR5 (Homo sapiens, UniProt P51681); experiment: Inhibition of 125I-MIP-1α binding to CCR5 (CCR5+ CHO cells); conditions: 125I-MIP-1α 200 ng/ml
T1 construct: expressed in transfected cells; host or cells: Chinese hamster ovary (CHO) cells expressing CCR5
Method: (§1) In order to determine whether GRL derivatives block the binding of CC-chemokines to CCR5, we conducted a CC-chemokine binding inhibition assay using ^125I-labeled CC-chemokines (^125I-RANTES, ^125I-MIP-1α, and ^125I-MIP-1β) and CCR5 expressing cells.
(§2) CCR5^+ CHO cells were incubated with (A) ^125I-MIP-1α, (B) ^125I-MIP-1β, and (C) ^125I-RANTES (200 ng/ml) in the presence or absence of varying concentrations of CCR5 inhibitors. Data are shown as means ± s.d. of three independent experiments.
(§3) The inhibition of the binding of ^125I-labeled CC-chemokines ([^125I] RANTES, [^125I] MIP-1α, or [^125I] MIP-1β) to CCR5 by various CCR5 inhibitors was measured as previously described. Calcium flux inhibition assays were also performed with CCR5 inhibitors, and were carried out with the Fluo-4 Direct^TM calcium reagent (Invitrogen); assays were conducted as previously described with minor modifications. In brief, CHO-CCR5 cells (5 × 10^5 cells) were exposed to Fluo-4 Direct^TM calcium reagent for 60 min at 37 °C in RPMI containing 5% FCS. Cells were then incubated with the test compound for 30 min at varying concentrations. […] Relative increases in cytosolic Ca^2+ levels after chemokine exposure were determined with flow cytometry (FACSCalibur, BD Biosciences), and IC50 values of cytosolic Ca^2+ mobilization (Ca^2+ flux) were compared with the Ca^2+ flux level in drug-free control samples.

CCR5 [2] = target: T1, CCR5; experiment: Inhibition of 125I-MIP-1β binding to CCR5 (CCR5+ CHO cells); conditions: 125I-MIP-1β 200 ng/ml
Method: as §1, §2, §3

CCR5 [3] = target: T1, CCR5; experiment: Inhibition of 125I-RANTES binding to CCR5 (CCR5+ CHO cells); conditions: 125I-RANTES 200 ng/ml
Method: as §1, §2, §3

With Maraviroc [MVC] the EC50 (CCR5 [1]) was 0.1 nM, the EC50 (CCR5 [2]) was 0.5 nM and the EC50 (CCR5 [3]) was 8.4 nM.
